Measured values as given in ChEMBL document CHEMBL4834412, “2,4,5-Trisubstituted Pyrimidines as Potent HIV-1 NNRTIs: Rational Design, Synthesis, Activity Evaluation, and Crystallographic Studies” (J Med Chem, 2021).

Tests used:
MT4 = test: Cytotoxicity in mock-infected human MT4 assessed as reduction in cell viability incubated for 5 days by MTT assay; format: ADME, cell-based; details: mt4, 120 h, time 5 day
[1] = Selectivity index, ratio of CC50 for cytotoxicity against human MT4 cells reduction in cell viability for 5 days by MTT assay to EC50 for antiviral activity against wild type HIV-1 strain IIIB infected in human MT4 cells assessed as reduction in virus-induced cytopathogenicity by MTT assay; format: toxicity, cell-based; details: time 5 day, read-out: Selectivity Index
[2] = Selectivity index, ratio of CC50 for cytotoxicity against human MT4 cells reduction in cell viability for 5 days by MTT assay to EC50 for antiviral activity against NNRTI-resistant HIV-1 RES056 harboring RT K103N/Y181C mutant infected in human MT4 cells assessed as protection against virus-induced cytopathogenicity after 5 days by MTT assay; format: toxicity, cell-based; details: time 5 day, read-out: Selectivity Index
[3] = system: Human immunodeficiency virus 2; test: Antiviral activity against HIV-2 ROD infected in human MT4 cells assessed as protection against virus-induced cytopathogenicity after 5 days by MTT assay; details: Human immunodeficiency virus 2, ROD, MT4, 120 h
[4] = molecular target: Human immunodeficiency virus type 1 reverse transcriptase (Human immunodeficiency virus 1, UniProt Q72547); test: Inhibition of recombinant wild type HIV1 reverse transcriptase assessed as inhibition of biotin-dUTP incorporation into template

Compound	CC50 (MT4) [µM]	selectivity ratio at 120 h [1]	selectivity ratio at 120 h [2]	EC50 [3] [µM]	IC50 [4] [µM]
Cc1cc(/C=C/C#N)cc(C)c1Oc1nc(NC2CCN(Cc3ccc(C(N)=O)cc3)CC2)ncc1-c1ccnc(F)c1	15.5	1880	290	–	–
Cc1cc(/C=C/C#N)cc(C)c1Oc1nc(NC2CCN(Cc3ccc(S(N)(=O)=O)cc3)CC2)ncc1-c1ccnc(F)c1	8.46	1330	218	–	–
Cc1cc(C#N)cc(C)c1Oc1nc(Nc2ccc(C#N)cc2)nc(N)c1Br [ETRAVIRINE]	> 4.59	–	–	–	–
Cc1cc(C#N)cc(C)c1Oc1nc(NC2CCN(Cc3ccc(C(N)=O)cc3)CC2)ncc1-c1ccoc1	181	53600	1680	–	–
Cc1cc(/C=C/C#N)cc(C)c1Oc1nc(NC2CCN(Cc3ccc(S(C)(=O)=O)cc3)CC2)ncc1-c1ccc(N)nc1	2.36	447	90	–	–
Cc1cc(C#N)cc(C)c1Oc1nc(NC2CCN(Cc3ccc(S(C)(=O)=O)cc3)CC2)ncc1-c1cccs1	8.38	2090	62	> 8.38	–
Cc1cc(C#N)cc(C)c1Oc1nc(NC2CCN(Cc3ccc(S(N)(=O)=O)cc3)CC2)ncc1-c1cccs1	53.8	11800	520	–	–
Cc1cc(/C=C/C#N)cc(C)c1Oc1nc(NC2CCN(Cc3ccc(S(N)(=O)=O)cc3)CC2)ncc1-c1ccnc(Br)c1	6.6	1490	246	–	–
Cc1cc(C#N)cc(C)c1Oc1nc(NC2CCN(Cc3ccc(S(C)(=O)=O)cc3)CC2)ncc1-c1ccccc1	12.1	2460	21	> 12.1	–
COc1cc(-c2cnc(NC3CCN(Cc4ccc(C(N)=O)cc4)CC3)nc2Oc2c(C)cc(/C=C/C#N)cc2C)ccn1	6.27	861	156	–	–
Cc1cc(/C=C/C#N)cc(C)c1Oc1nc(NC2CCN(Cc3ccc(S(N)(=O)=O)cc3)CC2)ncc1-c1ccncc1	9.25	2010	404	–	0.143
Cc1cc(C#N)cc(C)c1Oc1nc(NC2CCN(Cc3ccc(S(C)(=O)=O)cc3)CC2)ncc1-c1ccncc1	17.2	2900	70	> 17.2	–
Cc1cc(-c2cnc(NC3CCN(Cc4ccc(S(C)(=O)=O)cc4)CC3)nc2Oc2c(C)cc(/C=C/C#N)cc2C)ccn1	5.34	1170	169	–	–
Cc1cc(C#N)cc(C)c1Oc1nc(NC2CCN(Cc3ccc(S(N)(=O)=O)cc3)CC2)ncc1-c1ccsc1	6.13	1020	29	–	–
Cc1cc(/C=C/C#N)cc(C)c1Oc1nc(NC2CCN(Cc3ccc(S(N)(=O)=O)cc3)CC2)ncc1-c1ccc(F)nc1	17.1	2960	607	–	–
Cc1cc(/C=C/C#N)cc(C)c1Oc1nc(NC2CCN(Cc3ccc(C(N)=O)cc3)CC2)ncc1-c1ccc(N)nc1	12.8	1960	424	–	–
Cc1cc(-c2cnc(NC3CCN(Cc4ccc(S(N)(=O)=O)cc4)CC3)nc2Oc2c(C)cc(/C=C/C#N)cc2C)ccn1	4.37	1100	190	–	–
Cc1cc(/C=C/C#N)cc(C)c1Oc1nc(NC2CCN(Cc3ccc(S(C)(=O)=O)cc3)CC2)ncc1-c1ccncc1	7.2	1260	273	–	–
Cc1cc(/C=C/C#N)cc(C)c1Oc1nc(NC2CCN(Cc3ccc(C(N)=O)cc3)CC2)ncc1-c1ccc(F)nc1	20.9	4590	1020	–	–
Cc1cc(/C=C/C#N)cc(C)c1Oc1nc(NC2CCN(Cc3ccc(S(N)(=O)=O)cc3)CC2)ncc1-c1ccnc(Cl)c1	3.89	904	185	–	–
Cc1cc(-c2cnc(NC3CCN(Cc4ccc(C(N)=O)cc4)CC3)nc2Oc2c(C)cc(/C=C/C#N)cc2C)ccn1	6.51	1840	358	–	–
Cc1cc(/C=C/C#N)cc(C)c1Oc1nc(NC2CCN(Cc3ccc(C(N)=O)cc3)CC2)ncc1-c1ccnc(Cl)c1	19.1	4630	243	–	–

Compound	CC50 (MT4) [µM]	selectivity ratio at 120 h [1]	selectivity ratio at 120 h [2]	EC50 [3] [µM]	IC50 [4] [µM]
Cc1cc(C#N)cc(C)c1Oc1nc(NC2CCN(Cc3ccc(S(C)(=O)=O)cc3)CC2)ncc1-c1ccco1	7.45	1650	32	–	–
Cc1cc(/C=C/C#N)cc(C)c1Oc1nc(NC2CCN(Cc3ccc(C(N)=O)cc3)CC2)ncc1-c1ccnc(Br)c1	9.45	1350	293	–	–
Cc1cc(C#N)cc(C)c1Oc1nc(NC2CCN(Cc3ccc(S(C)(=O)=O)cc3)CC2)ncc1-c1ccsc1	4.25	863	17	> 4.25	–
Cc1cc(/C=C/C#N)cc(C)c1Oc1nc(NC2CCN(Cc3ccc(C(N)=O)cc3)CC2)ncc1-c1cccnc1	25.3	5300	1090	–	–
Cc1cc(/C=C/C#N)cc(C)c1Oc1nc(NC2CCN(Cc3ccc(C(N)=O)cc3)CC2)ncc1-c1ccncc1	10.2	2430	436	–	0.102
Cc1cc(C#N)cc(C)c1Oc1nc(NC2CCN(Cc3ccc(S(N)(=O)=O)cc3)CC2)ncc1-c1ccccc1	14.1	2740	33	> 14.1	–
Cc1cc(C#N)cc(C)c1Oc1nc(NC2CCN(Cc3ccc(S(C)(=O)=O)cc3)CC2)ncc1-c1ccoc1	55.8	11700	323	> 55.8	–
Cc1cc(C#N)cc(C)c1Oc1nc(NC2CCN(Cc3ccc(C(N)=O)cc3)CC2)ncc1-c1ccsc1	37.3	8840	90	> 37.3	–
Cc1cc(/C=C/C#N)cc(C)c1Oc1nc(NC2CCN(Cc3ccc(S(C)(=O)=O)cc3)CC2)ncc1-c1cccnc1	23.5	5150	1050	–	–
Cc1cc(/C=C/C#N)cc(C)c1Oc1nc(NC2CCN(Cc3ccc(S(C)(=O)=O)cc3)CC2)ncc1-c1ccnc(Br)c1	3.21	711	97	–	–
COc1cc(-c2cnc(NC3CCN(Cc4ccc(S(C)(=O)=O)cc4)CC3)nc2Oc2c(C)cc(/C=C/C#N)cc2C)ccn1	2.1	533	70	–	–
Cc1cc(C#N)cc(C)c1Oc1nc(NC2CCN(Cc3ccc(S(N)(=O)=O)cc3)CC2)ncc1-c1ccoc1	29.1	11600	180	> 29.1	0.092
Cc1cc(C#N)cc(C)c1Oc1nc(NC2CCN(Cc3ccc(C(N)=O)cc3)CC2)ncc1-c1ccco1	7.35	1270	29	> 7.35	–
Cc1cc(/C=C/C#N)cc(C)c1Oc1nc(NC2CCN(Cc3ccc(S(C)(=O)=O)cc3)CC2)ncc1-c1ccc(F)nc1	6.05	1000	237	–	–
Cc1cc(C#N)cc(C)c1Oc1nc(NC2CCN(Cc3ccc(S(N)(=O)=O)cc3)CC2)ncc1-c1ccco1	11.2	2540	51	> 11.2	–
COc1cc(-c2cnc(NC3CCN(Cc4ccc(S(N)(=O)=O)cc4)CC3)nc2Oc2c(C)cc(/C=C/C#N)cc2C)ccn1	5.5	957	160	–	–
Cc1cc(C#N)cc(C)c1Oc1nc(NC2CCN(Cc3ccc(C(N)=O)cc3)CC2)ncc1-c1ccccc1	≥ 13.4	–	–	–	–
Cc1cc(/C=C/C#N)cc(C)c1Oc1nc(NC2CCN(Cc3ccc(S(C)(=O)=O)cc3)CC2)ncc1-c1ccnc(F)c1	5.03	1060	200	–	–
Cc1cc(C#N)cc(C)c1Oc1nc(NC2CCN(Cc3ccc(C(N)=O)cc3)CC2)ncc1-c1cccs1	9.26	2770	80	> 9.26	–
Cc1cc(/C=C/C#N)cc(C)c1Oc1nc(NC2CCN(Cc3ccc(S(C)(=O)=O)cc3)CC2)ncc1-c1ccnc(Cl)c1	2.04	482	61	–	–
Cc1cc(/C=C/C#N)cc(C)c1Oc1nc(NC2CCN(Cc3ccc(S(N)(=O)=O)cc3)CC2)ncc1-c1cccnc1	20.4	4060	793	–	–
Cc1cc(C#N)cc(C)c1Oc1nc(NC2CCN(Cc3ccc(S(N)(=O)=O)cc3)CC2)ncc1-c1ccncc1	5.67	2190	51	> 5.67	–
